Several values for one entry are separate records, joined by “and”; a condition that tells them apart may be missing. Equal entries are not always repeated.
Columns and labels:
rat α3β2 nAChR [1] = biological target: T1, rat α3β2 nAChR (Rattus norvegicus, UniProt P04757+P12390)
mouse α1β1δε nAChR [2] = biological target: T2, mouse α1β1δε nAChR (Mus musculus, UniProt P02716+P04756+P20782)
mouse α1β1δε nAChR [3] = biological target: T2, mouse α1β1δε nAChR; test: TEVC recording of ACh-evoked currents, mouse α1β1δε nAChR expressed in Xenopus laevis oocytes; details: for effect on α1β1δε nAChR: 1 μM peptide
rat α3β4 nAChR [4] = biological target: T3, rat α3β4 nAChR (Rattus norvegicus, UniProt P04757+P12392)
rat α3β2 nAChR [5] = biological target: T1, rat α3β2 nAChR; test: TEVC recording of ACh-evoked currents, rat α3β2 nAChR expressed in Xenopus laevis oocytes; details: for activity at α3β2 nAChR: concentrations up to 10 μM
rat α3β4 nAChR [6] = biological target: T3, rat α3β4 nAChR; test: TEVC recording of ACh-evoked currents, rat α3β4 nAChR expressed in Xenopus laevis oocytes; details: for activity at α3β4 nAChR: concentrations up to 10 μM

Chains of the proteins cited; added tags and fusions are not shown. Residues count along the entry.
UniProt P04757, 26-499 limits assumed: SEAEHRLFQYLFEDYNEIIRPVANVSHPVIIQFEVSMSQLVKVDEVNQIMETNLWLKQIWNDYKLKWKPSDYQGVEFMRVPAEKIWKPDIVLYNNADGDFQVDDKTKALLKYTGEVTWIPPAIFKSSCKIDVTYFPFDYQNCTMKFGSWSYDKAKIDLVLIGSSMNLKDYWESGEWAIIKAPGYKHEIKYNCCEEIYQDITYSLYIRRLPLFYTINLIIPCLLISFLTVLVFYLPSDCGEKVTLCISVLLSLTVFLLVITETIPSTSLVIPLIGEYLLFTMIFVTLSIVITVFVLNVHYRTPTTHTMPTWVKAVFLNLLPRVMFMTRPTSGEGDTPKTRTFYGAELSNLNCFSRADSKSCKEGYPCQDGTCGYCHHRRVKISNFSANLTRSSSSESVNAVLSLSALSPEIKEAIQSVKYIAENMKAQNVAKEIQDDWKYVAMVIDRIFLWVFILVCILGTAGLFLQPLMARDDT
UniProt P12390, 25-500 limits assumed: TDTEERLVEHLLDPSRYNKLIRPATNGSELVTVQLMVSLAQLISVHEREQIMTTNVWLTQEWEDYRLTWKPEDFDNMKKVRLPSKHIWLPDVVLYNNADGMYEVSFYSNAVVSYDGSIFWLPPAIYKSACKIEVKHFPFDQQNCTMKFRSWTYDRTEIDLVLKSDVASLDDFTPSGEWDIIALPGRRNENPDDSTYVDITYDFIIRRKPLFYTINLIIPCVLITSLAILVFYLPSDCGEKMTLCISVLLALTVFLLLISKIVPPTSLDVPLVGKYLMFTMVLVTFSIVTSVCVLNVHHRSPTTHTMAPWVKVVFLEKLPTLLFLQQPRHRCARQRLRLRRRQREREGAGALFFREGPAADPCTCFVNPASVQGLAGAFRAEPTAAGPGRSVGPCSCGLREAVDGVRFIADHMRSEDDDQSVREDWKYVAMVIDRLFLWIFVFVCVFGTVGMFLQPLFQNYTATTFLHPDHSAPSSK
UniProt P12392, 21-495 limits assumed: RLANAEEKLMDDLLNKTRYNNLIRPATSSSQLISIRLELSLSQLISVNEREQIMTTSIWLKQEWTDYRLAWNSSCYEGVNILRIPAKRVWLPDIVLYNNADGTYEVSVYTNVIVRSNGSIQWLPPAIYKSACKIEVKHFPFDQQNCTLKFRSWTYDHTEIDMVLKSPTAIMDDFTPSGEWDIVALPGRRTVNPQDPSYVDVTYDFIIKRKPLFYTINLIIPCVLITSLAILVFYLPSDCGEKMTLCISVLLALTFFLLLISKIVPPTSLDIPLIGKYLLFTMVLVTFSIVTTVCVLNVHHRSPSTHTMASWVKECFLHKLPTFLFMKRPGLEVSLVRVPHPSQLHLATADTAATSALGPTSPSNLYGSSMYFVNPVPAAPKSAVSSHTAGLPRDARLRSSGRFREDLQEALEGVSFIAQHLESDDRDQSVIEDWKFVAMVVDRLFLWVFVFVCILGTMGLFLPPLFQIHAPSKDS

Structure (SMILES)	IC50 (rat α3β2 nAChR [1]) [µM]	IC50 (mouse α1β1δε nAChR [2])	activity at α1β1δε nAChR (mouse α1β1δε nAChR [3]; 10 nM peptide)	IC50 (rat α3β4 nAChR [4]) [µM]	activity at α3β2 nAChR (rat α3β2 nAChR [5])	effect on α1β1δε nAChR (mouse α1β1δε nAChR [3])	activity at α3β4 nAChR (rat α3β4 nAChR [6])	inhibition at α3β2 nAChR (rat α3β2 nAChR [5]; 1 μM peptide, n = 3) [%]	inhibition at α3β4 nAChR (rat α3β4 nAChR [6]; 1 μM peptide, n = 3) [%]
CC[C@H](C)[C@@H]1NC(=O)[C@H](CCC(N)=O)NC(=O)[C@@H]2CCCN2C(=O)[C@H](CC(N)=O)NC(=O)[C@H](CO)NC(=O)[C@H](CCSC)NC(=O)[C@H](CC(N)=O)NC(=O)[C@@H]2CSSC[C@H](NC(=O)[C@@H]3C[C@@H](O)CN3C(=O)[C@H](CC(=O)O)NC(=O)[C@@H](N)CCCNC(=N)N)C(=O)N[C@@H](CSSC[C@@H](C(N)=O)NC1=O)C(=O)N[C@@H](Cc1ccc(O)cc1)C(=O)N[C@@H](Cc1c[nH]cn1)C(=O)N1CCC[C@H]1C(=O)N[C@@H]([C@@H](C)O)C(=O)N2	7.3	0.0659 µM	no activity	6.44	–	–	–	–	–
CC[C@H](C)[C@@H]1NC(=O)[C@H](CCC(N)=O)NC(=O)[C@@H]2CCCN2C(=O)[C@H](CC(N)=O)NC(=O)[C@H](CO)NC(=O)[C@H](CCSC)NC(=O)[C@H](CC(N)=O)NC(=O)[C@@H]2CSSC[C@H](NC(=O)[C@@H]3C[C@@H](O)CN3)C(=O)N[C@@H](CSSC[C@@H](C(N)=O)NC1=O)C(=O)N[C@@H](Cc1ccc(O)cc1)C(=O)N[C@@H](Cc1c[nH]cn1)C(=O)N1CCC[C@H]1C(=O)N[C@@H]([C@@H](C)O)C(=O)N2	> 10	13 µM	–	> 10	no activity	little effect	no activity	–	–
CC[C@H](C)[C@@H]1NC(=O)[C@H](CCC(N)=O)NC(=O)[C@@H]2CCCN2C(=O)[C@H](CC(N)=O)NC(=O)[C@H](C)NC(=O)[C@H](CCSC)NC(=O)[C@H](CC(N)=O)NC(=O)[C@@H]2CSSC[C@H](NC(=O)[C@@H]3C[C@@H](O)CN3C(=O)[C@H](CC(=O)O)NC(=O)[C@@H](N)CCCNC(=N)N)C(=O)N[C@@H](CSSC[C@@H](C(N)=O)NC1=O)C(=O)N[C@@H](Cc1ccc(O)cc1)C(=O)N[C@@H](Cc1c[nH]cn1)C(=O)N1CCC[C@H]1C(=O)N[C@@H]([C@@H](C)O)C(=O)N2	> 10	0.0348 µM and 0.0346 µM	–	> 10	–	–	–	9.5 ± 2.0	3 ± 0.8
CC[C@H](C)[C@@H]1NC(=O)[C@H](CCC(N)=O)NC(=O)[C@@H]2CCCN2C(=O)[C@H](CC(N)=O)NC(=O)[C@H](CO)NC(=O)[C@H](CCSC)NC(=O)[C@H](CC(N)=O)NC(=O)[C@@H]2CSSC[C@H](NC(=O)[C@@H]3C[C@@H](O)CN3C(=O)[C@@H](N)CC(=O)O)C(=O)N[C@@H](CSSC[C@@H](C(N)=O)NC1=O)C(=O)N[C@@H](Cc1ccc(O)cc1)C(=O)N[C@@H](Cc1c[nH]cn1)C(=O)N1CCC[C@H]1C(=O)N[C@@H]([C@@H](C)O)C(=O)N2	> 10	0.716 µM	–	> 10	–	–	–	–	–
CC[C@H](C)[C@@H]1NC(=O)[C@H](CCC(N)=O)NC(=O)[C@@H]2CCCN2C(=O)[C@H](CC(N)=O)NC(=O)[C@H](CO)NC(=O)[C@H](CCSC)NC(=O)[C@H](CC(N)=O)NC(=O)[C@@H]2CSSC[C@H](N)C(=O)N[C@@H](CSSC[C@@H](C(N)=O)NC1=O)C(=O)N[C@@H](Cc1ccc(O)cc1)C(=O)N[C@@H](Cc1c[nH]cn1)C(=O)N1CCC[C@H]1C(=O)N[C@@H]([C@@H](C)O)C(=O)N2	> 10	12.2 µM	–	> 10	no activity	little effect	no activity	–	–

— PMC6832962, “Identification of Crucial Residues in α-Conotoxin EI Inhibiting Muscle Nicotinic Acetylcholine Receptor” (2019)
